From article PMC8753867
The exact form of at least one protein or probe is not confirmed.

Key:
[1] = test system: ArcA-P (phosphorylated ArcA-His6) (Vibrio cholerae); assay: EMSA; conditions: acetyl phosphate, ArcA: 10 mM Tris-HCl pH 8.0, 1 mM EDTA, 1 mM DTT, 50 mM KCl, 50 ug/mL BSA, 10% glycerol, 20 nM acetyl phosphate, CytR/CRP: 20 mM Tris-HCl pH 7.5, 50 mM KCl, recombinant protein, residues 1-238, protein details: His6 (pET-28a), probe letters rebuilt from the primers and the genome
[2] = test system: CytR-His6 (Vibrio cholerae); assay: EMSA; conditions: CytR 0-3.6 uM, ArcA: 10 mM Tris-HCl pH 8.0, 1 mM EDTA, 1 mM DTT, 50 mM KCl, 50 ug/mL BSA, 10% glycerol, 20 nM acetyl phosphate, CytR/CRP: 20 mM Tris-HCl pH 7.5, 50 mM KCl, recombinant protein, residues 1-335, protein details: His6 (pET-28a), probe letters rebuilt from the primers and the genome

Sequence: ATAAAGTCAGCTTGGGATCAAATTCCACCGGAATATCACAACTTGACTGCCGCTGAAGTGGGTATTTGATTTCTGTCAGAGAAACTTTTAACAGATATCACACCCAGCAAATGCTTGGTTGCCTTATTTGCTGATTTAAATAGAATAGAAGCCACTAACTAGCCAAGTGGCTTTTTTTGTTGCTGATTTCCACAAATTGTCTATCGTTTATTCAGGATCCAGAATAAAAATTAACACCTGAAAATGATGTTCAAACGGTGCAACCACAACTTCTTATAATAAAGGCAAATAATCTCACCT (double strand) [flrA promoter]
- binding result ([1]; ArcA-P 0-2.4 uM): binds

Sequence: ATCGCGTTTTATAACGCTGATGTGTGTTAATTTTGTCAGCAAATTAATGCTTATTATCGTGATGAAAATCACAGTGACTATGCAAAATTTGTTAATCTCGCCGTAACTTTCTGTTCTGAATCCCTTAGACTATCGGTAAAATCCACTCAGTGAATCGTTTTCGTTAAGCCCAACGTCATGGTTATGGCCATGATTTCTAG (double strand) [cytR promoter]
- binding result ([1]; ArcA-P 0-6 uM): binds

Sequence: GTCAAAAACGGAAATCCTATCAATGGCTGATGGAGAAAAAACAAACCGAACGTCAGTTATTACAAGAAAAACGCGAACAGAAACAGATGGATGAATTTTCGACCCTGATGTTCAATCGCCGCCGTCTCTCCTCATAAGGCGTAGTTTAAACGTCGTATCACGGCGCGAGCTTCTCCTCCTTGGATGCAATAAAACCTTCACTTGGCTTACTTCTTGCTAGATTTTCACAAAAGGGCGTTAACCCCAAGCTGTTACTGATGAGTTGATCTGCGCAGGTCATGCTCAGACTTCAATTCCACT (double strand) [fliK promoter]
- binding result [2]: binds
